Anti-infective test results gathered from many reports (values: NIAID ChemDB through PubChem).

All rows: target-level tests; agent: HIV-1; target: Reverse transcriptase

Neighbouring rows are from separate reports. ICn is the concentration giving n% inhibition. An empty or dashed field is not shown.

| structure | method | strain | endpoint | changes | result |
|---|---|---|---|---|---|
| O=C(Nc1cc(-c2ccc3c(c2)CCCC3)[nH]n1)c1ccc(-c2ccncc2)s1 | RT activity / nucleotide incorporation / luminescence | NL4-3 | IC50 | K103N | 0.22 µM |
| Nc1ncnc2c1ncn2[C@H]1CC[C@@H](COP(=O)(O)OP(=O)(O)OP(=O)(O)O)O1 | ELISA | - | IC50 | RT-T215Y K219Q | 8.4 µM |
| C[C@@H](CNC(=S)Nc1ccc(Br)cn1)C1CCCCC1 | - | - | IC50 | - | 1.2 µM |
| CCN1c2ncc(CO)cc2C(=O)N(C)c2ccc(F)nc21 | nucleotide incorporation / radiometric | - | IC50 | RT-Y181C | <1 µM |
| C[C@@H](NC(=S)Nc1ccc(Cl)cn1)c1cccc2ccccc12 | - | - | IC50 | - | 0.58 µM |
| O=C1CSC(c2ccnc3ccccc23)N1c1ccccn1 | ELISA | - | IC50 | - | >10 µg/mL |
| Cc1cc2c(C(C)C)c(O)c(O)c(C=NCCO)c2c(O)c1-c1c(C)cc2c(C(C)C)c(O)c(O)c(C=NCCO)c2c1O | HPLC | LAV | IC50 | - | 1.2 µM |
| C[C@H]1[C@H](C)CC[C@]2(C)CC[C@]3(C)C(=CCC4[C@@]5(C)CCC(=O)C(C)(C)[C@@H]5CC[C@]43C)[C@H]12 | nucleotide incorporation | - | IC50 | - | 3.3 µM |
| O=C(OCC(COC(=O)c1ccc(O)cc1)OC(=O)c1ccc(O)cc1)c1ccc(O)cc1 | nucleotide incorporation | - | IC50 | - | >50 µM |
| C=C(C)[C@@H]1CC[C@]2(C=O)CC[C@]3(C)[C@H](CC[C@@H]4[C@@]5(C)CC[C@H](O)C(C)(C)[C@@H]5CC[C@]43C)[C@@H]12 | nucleotide incorporation | - | IC50 | - | >45 µM |
| O=C(Nc1nnc(-c2ccc3c(c2)CCCC3)o1)C1=COCCO1 | RT activity / nucleotide incorporation / luminescence | NL4-3 | IC50 | Y181C | 0.79 µM |
| Cc1cc2c(C(C)C)c(O)c(O)c(C=Nc3ccccc3)c2c(O)c1-c1c(C)cc2c(C(C)C)c(O)c(O)c(C=Nc3ccccc3)c2c1O | HPLC | LAV | IC50 | - | >100 µM |
| CCOC(=O)Cc1csc(NC(=S)NC[C@H](C)c2ccccc2)n1 | - | - | IC50 | - | >100 µM |
| O=C1CSC(c2c(Cl)cccc2Cl)N1Cc1ccco1 | ELISA | - | IC50 | - | <10 µg/mL |
| CNc1ccc(Cl)cc1S(=O)(=O)c1ccccc1[N+](=O)[O-] | - | - | IC50 | RT-P236L | 0.05 µM |
| CCc1cc(CCc2nc3ccccc3o2)c(=O)[nH]c1C | nucleotide incorporation | RT-WT | IC50 | - | 0.035 µM |
| CCC(NC(=S)Nc1nc2ccccc2s1)c1ccccc1 | - | - | IC50 | - | >100 µM |
| CC(C)=CCC[C@H](C)C1=C2CC[C@@H]3[C@@]4(C)CC[C@H](O)C(C)(C)[C@@H]4CC[C@@]3(C)[C@]2(C)CC1 | nucleotide incorporation | - | IC50 | - | 3.5 µM |
| Cc1cc2c(C(C)C)c(O)c(O)cc2c(O)c1-c1c(C)cc2c(C(C)C)c(O)c(O)cc2c1O | HPLC | LAV | IC50 | - | 4.4 µM |
| CCOC(=O)c1ccc(O)cc1 | nucleotide incorporation | - | IC50 | - | >50 µM |
| COc1ccc2c(c1)N(C(=O)OC(C)C)[C@@H](CSC)C(=S)N2 | scintillation proximity / radiometric | - | IC50 | RT-Y181C G190E | >29 µM |
| CC(C)=CCC[C@H](C)C1CC[C@]2(C)C3=CC[C@H]4C(C)(C)[C@@H](O)CC[C@]4(C)C3CC[C@@]12C | nucleotide incorporation | - | IC50 | - | 9.2 µM |
| Cc1ccc(NC(=S)N[C@@H](C)c2cccc3ccccc23)nc1 | - | - | Ki | - | >100 µM |
| Nc1ccn([C@H]2CC[C@@H](COP(=O)(O)OP(=O)(O)OP(=O)(O)O)O2)c(=O)n1 | ELISA | - | IC50 | RT-L74V | 9.4 µM |
| O=C(/C=C/c1ncc(-c2cccnc2)cn1)Nc1cc(-c2ccc3c(c2)CCCC3)[nH]n1 | RT activity / nucleotide incorporation / luminescence | NL4-3 | IC50 | WT | 0.2 µM |
| CCN1c2ncc(COc3cccc4[nH]ccc34)cc2C(=O)N(C)c2ccc(Cl)nc21 | nucleotide incorporation / radiometric | WT | IC50 | - | <1 µM |
| O=C(Nc1cc(-c2ccc3c(c2)CCCC3)[nH]n1)c1ccc(-c2cncnc2)s1 | RT activity / nucleotide incorporation / luminescence | NL4-3 | IC50 | K103N | 0.38 µM |
| CCN1c2ncc(CS(=O)c3ccccc3)cc2C(=O)N(C)c2ccc(Cl)nc21 | nucleotide incorporation / radiometric | WT | IC50 | - | <1 µM |
| C=C(CCC=C(C)C)C1CC[C@]2(C)C1CC[C@@H]1[C@@]3(C)CC[C@H](O)C(C)(C)[C@@H]3CC[C@]12C | nucleotide incorporation | - | IC50 | - | 3.5 µM |
| Cc1csc(NC(=S)NC[C@H](C)c2ccccc2)n1 | - | - | IC50 | - | 5.05 µM |
| CC(=O)Oc1c(-c2c(C)cc3c(C(C)C)c(O)c(O)c(C#N)c3c2OC(C)=O)c(C)cc2c(C(C)C)c(O)c(O)c(C#N)c12 | HPLC | LAV | IC50 | - | >100 µM |
| COc1cc(OC)c(C2SCC(=O)N2c2cccc(C)n2)c(OC)c1 | ELISA | - | IC50 | - | ~10 µg/mL |
| CCN1c2ncc(CSc3ccncc3)cc2C(=O)N(C)c2ccc(Cl)nc21 | nucleotide incorporation / radiometric | - | IC50 | RT-Y181C | <1 µM |
| O=C(Nc1cc(-c2ccc3c(c2)CCCC3)[nH]n1)c1cccs1 | RT activity / nucleotide incorporation / luminescence | NL4-3 | IC50 | Y181C | 0.28 µM |
| Cc1cc2c(C(C)C)c(O)c(O)c(C=N)c2c(O)c1-c1c(C)cc2c(C(C)C)c(O)c(O)c(C=N)c2c1O | HPLC | LAV | IC50 | - | 2.1 µM |
| CCN1c2ncc(Cc3cccc(O)c3)cc2C(=O)N(C)c2ccc(Cl)nc21 | nucleotide incorporation / radiometric | WT | IC50 | - | <1 µM |
| Cc1cc2c(C(C)C)c(O)c(O)c(/C=N/O)c2c(O)c1-c1c(C)cc2c(C(C)C)c(O)c(O)c(/C=N/O)c2c1O | HPLC | LAV | IC50 | - | 3.2 µM |
| Cc1cccc(Cc2nc(OCC(C)C)[nH]c(=O)c2C)c1 | nucleotide incorporation | IIIB | IC50 | - | 5.5 µM |
| O=P(O)(O)OP(=O)(O)O | - | - | Ki | RT-Q161L H208Y | 3500 µM |
| CCC(C)Oc1nc(Cc2cc(C)cc(C)c2)cc(=O)[nH]1 | nucleotide incorporation | IIIB | IC50 | - | 3.4 µM |
| Cc1cn([C@H]2C=C[C@@H](COP(=O)(O)OP(=O)(O)OP(=O)(O)O)O2)c(=O)[nH]c1=O | nucleotide incorporation / radiometric | - | IC50 | RT-E138K | 0.16 µM |
| CC1(C)[C@@H](O)CC[C@]2(C)C3=C(CC[C@@H]12)[C@@]1(C)CC[C@@]2(C)CC[C@@](C)(C(=O)O)C[C@H]2[C@]1(C)CC3 | nucleotide incorporation | - | IC50 | - | 5.3 µM |
| CCC(C)Oc1nc(Cc2cccc(C)c2)c(C)c(=O)[nH]1 | nucleotide incorporation | IIIB | IC50 | - | 2.1 µM |
| Cc1nc(N2C(=O)CSC2c2c(Cl)cccc2Cl)ccc1Br | ELISA | - | IC50 | - | >10 µg/mL |
| O=c1c(O)c(-c2ccc(O)c(O)c2)oc2cc(O)c(O)c(O)c12 | nucleotide incorporation | - | Ki | - | 0.46 µM |
| Cc1c(Sc2ccccc2)n(COCCO)c(=O)[nH]c1=O | nucleotide incorporation | - | IC50 | - | 23 µM |
| Cc1cccc(NC(=S)N[C@@H](C)c2ccccc2)n1 | - | - | IC50 | - | >100 µM |
| CC(=O)Oc1c(OC(C)=O)c2c3c(c(-c4c(C)cc5c(C(C)C)c(OC(C)=O)c(OC(C)=O)c6c5c4OC6OC(C)=O)c(C)cc3c1C(C)C)OC2OC(C)=O | HPLC | LAV | IC50 | - | 2.3 µM |
| Cc1cccc(Cc2cc(=O)[nH]c(=O)[nH]2)c1 | nucleotide incorporation | IIIB | IC50 | - | >10 µM |
| Cc1c(Sc2ccccc2)n(COCCO)c(=O)[nH]c1=O | nucleotide incorporation | - | IC50 | - | 0.1 µM |
| CCN1c2ncc(CCc3ccccc3)cc2C(=O)Nc2c(C)cc(Cl)nc21 | nucleotide incorporation / radiometric | - | IC50 | RT-Y181C | <1 µM |

Repeating the first 5 entries:

{"structure": "O=C(Nc1cc(-c2ccc3c(c2)CCCC3)[nH]n1)c1ccc(-c2ccncc2)s1", "method": "RT activity / nucleotide incorporation / luminescence", "strain": "NL4-3", "endpoint": "IC50", "changes": "K103N", "result": "0.22 µM"}
{"structure": "Nc1ncnc2c1ncn2[C@H]1CC[C@@H](COP(=O)(O)OP(=O)(O)OP(=O)(O)O)O1", "method": "ELISA", "endpoint": "IC50", "changes": "RT-T215Y K219Q", "result": "8.4 µM"}
{"structure": "C[C@@H](CNC(=S)Nc1ccc(Br)cn1)C1CCCCC1", "endpoint": "IC50", "result": "1.2 µM"}
{"structure": "CCN1c2ncc(CO)cc2C(=O)N(C)c2ccc(F)nc21", "method": "nucleotide incorporation / radiometric", "endpoint": "IC50", "changes": "RT-Y181C", "result": "<1 µM"}
{"structure": "C[C@@H](NC(=S)Nc1ccc(Cl)cn1)c1cccc2ccccc12", "endpoint": "IC50", "result": "0.58 µM"}